Values of other authors as cited in publication PMC9962416.

Target: TLR4 (Homo sapiens) (UniProt O00206)
Assay: SPR

**Q.** Which Kd does the source give for “SARS-CoV-2 spike protein (trimer) (from UniProt P0DTC2)” here?
**A.** 300 nM
